Measured values from several laboratories, pooled; numbers as filed in NIAID ChemDB.

Common to all: tests on isolated targets; agent: Hepatitis C virus

Blank or dashed fields: not listed here. Two numbers with a dash give a range or band. ICn is the concentration giving n% inhibition. Percent inhibition refers to the dose given; in toxicity tests it is the harm to the cells. Rows are shuffled and stem from different studies.

compound	endpoint	tested at	target	value
O=C(O)c1nc(-c2ccccc2NS(=O)(=O)NCc2ccccc2Cl)[nH]c(=O)c1O	IC50		HCV polymerase	<100 µM
CSCCC(NC(=O)c1ccc2c(c1)nc(-c1cc3ncc(-c4ccccc4)nc3cc1F)n2C1CCCCC1)C(=O)O	inhibition	100 µM	NS5B polymerase	88.31%
CNC(=O)c1c(-c2ccc(F)cc2)oc2cc(N3CCOCC3)c(OC(C)c3ccc(F)cc3)cc12	IC50		Nonstructural protein 5B	≤0.5 µM
CC(NC(=O)Nc1ccccc1-c1nc(C(=O)O)c(O)c(=O)[nH]1)c1cccc2ccccc12	IC50		HCV polymerase	<100 µM
O=C(O)c1ccc2c(c1)nc(-c1ccc3nc(-c4ccccc4-c4ccc(Cl)c(Cl)c4)ccc3c1)n2C1CCCCC1	inhibition	100 µM	NS5B polymerase	99.93%
COc1cccc(COc2cccc(-c3cnc4c(C(=O)O)cnn4c3C3CCCCC3)c2)c1	IC50		RNA-dependent RNA polymerase	1–10 µM
CNC(=O)c1c(-c2ccc(F)cc2)oc2cc(-c3ccc(F)nc3)c(OC(C)C)cc12	IC50		Nonstructural protein 5B	≤0.5 µM
Cn1c2ccc(Cl)cc2c2cc(-c3ccc4cc(-c5nc6cc(C(=O)O)ccc6n5C5CCCCC5)ccc4n3)ccc21	inhibition	100 µM	NS5B polymerase	97.17%
O=C(Nc1ccccc1F)Nc1cscc1-c1nc(C(=O)O)c(O)c(=O)[nH]1	IC50		HCV polymerase	<25 µM
O=C(O)c1ccc2c(c1)nc(-c1ccc3ccc(-c4ccccc4)nc3c1)n2C1CCCCC1	inhibition	100 µM	NS5B polymerase	98.89%
COc1cccc(-c2cc(-c3cc(Cl)cc(Cl)c3)n3nc(C(=O)O)cc3n2)c1	IC50		RNA-dependent RNA polymerase	>10 µM
O=C(Cc1ccccc1Br)Nc1ccsc1-c1nc(C(=O)O)c(O)c(=O)[nH]1	IC50		HCV polymerase	<25 µM
O=C(O)c1cnc2c(c1)nc(-c1ccc3nc(-c4ccccc4Br)ccc3c1)n2C1CCCCC1	inhibition	33 µM	NS5B polymerase	92.43%
O=C(O)c1cc2nc(-c3ccccc3)c(CCC3CCCCC3)c(=O)n2[nH]1	IC50		RNA-dependent RNA polymerase	<1 µM
CCc1cc2c(C(=O)NC)c(-c3ccc(F)cc3)oc2cc1C(C)(C)O	IC50		Nonstructural protein 5B	≤0.5 µM
CC(C)(C)OC(N)=NCCNc1cc(-c2ccccc2)nc2ccc(-c3nc4cc(C(=O)O)ccc4n3C3CCCCC3)cc12	inhibition	100 µM	NS5B polymerase	102%
O=C(O)c1cc2nc(-c3ccc(Cl)cc3)cc(-c3cccc(Cl)c3)n2n1	IC50		RNA-dependent RNA polymerase	>10 µM
O=C(O)c1ccc2c(c1)nc(-c1ccc3nc(-c4cccc(OCCCN5CCCC5)c4)ccc3c1)n2C1CCCCC1	inhibition	100 µM	NS5B polymerase	96.83%
CC(C)C(=O)Nc1cnn2c(C3CCCCC3)c(-c3ccc(OCc4ccccc4)cc3)cnc12	IC50		RNA-dependent RNA polymerase	>10 µM
CNC(=O)c1c(-c2ccc(F)cc2)oc2cc(-c3cncnc3)c(OC(C)C)cc12	IC50		Nonstructural protein 5B	≤0.5 µM
O=C(Nc1cscc1-c1nc(C(=O)O)c(O)c(=O)[nH]1)NS(=O)(=O)c1cccc2ccccc12	IC50		HCV polymerase	<25 µM
O=C(O)c1cnn2c(C3CCCCC3)c(-c3ccc(Cl)c(Cl)c3)cnc12	IC50		RNA-dependent RNA polymerase	1–10 µM
O=C(Nc1ccccc1)Nc1cscc1-c1nc(C(=O)O)c(O)c(=O)[nH]1	IC50		HCV polymerase	<25 µM
O=C(O)c1cc2nc(-c3ccccc3Cl)cc(-c3ccc(Oc4ccccc4)cc3)n2n1	IC50		RNA-dependent RNA polymerase	1–10 µM
O=C(O)c1ccc2c(c1)nc(-c1ccc3nc(-c4ccccc4)c(-c4ccccc4)cc3c1)n2C1CCCCC1	inhibition	100 µM	NS5B polymerase	99.9%
COCc1ccccc1-c1ccc(-c2nc3cc(C(=O)O)[nH]n3c(=O)c2C2CCCCC2)cc1	IC50		RNA-dependent RNA polymerase	1–10 µM
O=C(Cc1ccc2c(c1)OCO2)Nc1cscc1-c1nc(C(=O)O)c(O)c(=O)[nH]1	IC50		HCV polymerase	<25 µM

Repeating the final 3 entries:

compound,endpoint,tested at,target,value
O=C(O)c1ccc2c(c1)nc(-c1ccc3nc(-c4ccccc4)c(-c4ccccc4)cc3c1)n2C1CCCCC1,inhibition,100 µM,NS5B polymerase,99.9%
COCc1ccccc1-c1ccc(-c2nc3cc(C(=O)O)[nH]n3c(=O)c2C2CCCCC2)cc1,IC50,,RNA-dependent RNA polymerase,1–10 µM
O=C(Cc1ccc2c(c1)OCO2)Nc1cscc1-c1nc(C(=O)O)c(O)c(=O)[nH]1,IC50,,HCV polymerase,<25 µM